The target in this assay is T1, GST-rat SV2C(454-579), GST-tagged recombinant intra-luminal fragment of SV2C, rat, Q9Z2I6 454-579.
T1 sequence: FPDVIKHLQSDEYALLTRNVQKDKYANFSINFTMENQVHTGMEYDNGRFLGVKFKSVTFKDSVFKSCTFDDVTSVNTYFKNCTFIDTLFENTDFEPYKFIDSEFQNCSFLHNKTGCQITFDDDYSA

As for “rE (recombinant BoNT/E toxin in double chain form)”, the result is given as “no binding (tested: 100 nM)”.
